PMC5762688 (Scientific Reports, 2018)

Target: Importin α2/β1 heterodimer (mouse), tagless recombinant, preformed (mouse, UniProt P52293 1-529; P70168 1-876)
Experiment: circular dichroism
Conditions: both partners purified

B1: Hendra virus V protein, wild type, tagless recombinant (natural protein)
chain: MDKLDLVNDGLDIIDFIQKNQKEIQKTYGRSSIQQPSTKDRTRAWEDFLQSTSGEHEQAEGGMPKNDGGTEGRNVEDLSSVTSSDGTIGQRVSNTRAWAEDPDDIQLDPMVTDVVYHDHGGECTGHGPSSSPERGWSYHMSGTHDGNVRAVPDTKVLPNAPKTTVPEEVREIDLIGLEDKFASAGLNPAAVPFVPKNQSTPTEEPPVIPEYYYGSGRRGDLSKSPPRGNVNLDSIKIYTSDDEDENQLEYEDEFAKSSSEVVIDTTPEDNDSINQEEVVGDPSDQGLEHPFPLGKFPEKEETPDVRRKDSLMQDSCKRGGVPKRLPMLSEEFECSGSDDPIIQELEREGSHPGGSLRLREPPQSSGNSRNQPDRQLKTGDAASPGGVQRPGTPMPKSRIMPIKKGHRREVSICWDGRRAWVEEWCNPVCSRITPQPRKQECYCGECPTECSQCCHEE
  binding result: binds
